Compound potency records, mixed from different reports. Data source: NIAID ChemDB in PubChem.

All rows: whole-cell or culture tests; species: HIV-1

ECn is the concentration giving n% inhibition of infection, replication or growth. Conditions beyond the fields shown may differ between rows. An empty or dashed field is not shown.

{"structure": "Cc1ccc(-c2ccc3c(c2)C=C(C(=O)Nc2ccc(C[N+](C)(C)C4CCOCC4)cc2)CCC3)cc1", "strain": "BAL R5", "cell line": "PBMC", "read by": "p24", "endpoint": "EC90", "value": "0.256 µM"}
{"structure": "Nc1ccn([C@H]2CC[C@@H](CO)O2)c(=O)n1", "strain": "BCF03", "cell line": "PBMC", "changes": "RT-A98G Y181C", "endpoint": "EC50", "value": "0.12 µM"}
{"structure": "CCCCN1C(=O)C(CC2CCCCC2)NC(=O)C12CCN(Cc1ccc3c(c1)OCCO3)CC2", "strain": "NL4-3 X4", "cell line": "PBMC", "read by": "p24", "endpoint": "EC50", "value": ">1 µM"}
{"structure": "CC(C)=CCN1Cc2cccc3[nH]c(=S)n(c23)C[C@@H]1C", "strain": "IIIB", "cell line": "CEM", "read by": "syncytia", "endpoint": "EC50", "value": "0.09 µM"}
{"structure": "CCOCn1c(Sc2cc(C)cc(C)c2)c(CC)c(=O)[nH]c1=S", "strain": "IIIB", "cell line": "MT-4", "read by": "cytopathic effect / MTT", "endpoint": "EC50", "value": "0.0056 µM"}
{"structure": "CC(C)(C)NC(=O)[C@@H]1C[C@@H]2CCCC[C@@H]2CN1C[C@@H](O)[C@H](Cc1ccccc1)NC(=O)[C@H](CC(N)=O)NC(=O)c1ccc2ccccc2n1", "strain": "LAI", "cell line": "PBMC", "endpoint": "EC50", "value": "0.0122 µM"}
{"structure": "Cc1cn([C@@H]2O[C@H](CO[Si](C)(C)C(C)(C)C)C3(OS(=O)(=O)C=C3N)[C@H]2O[Si](C)(C)C(C)(C)C)c(=O)n(C)c1=O", "strain": "IIIB", "cell line": "CEM", "changes": "RT-E138K", "read by": "syncytia", "endpoint": "EC50", "value": ">80 µM"}
{"structure": "Cc1cn([C@H]2C[C@H](N=[N+]=[N-])[C@@H](CO)O2)c(=O)[nH]c1=O", "strain": "C140 NRTI resistant", "cell line": "PBMC", "changes": "RT-M42L M184V T215Y", "read by": "p24", "endpoint": "EC50", "value": "0.1 µM"}
{"structure": "Cc1cc(C)cc(Sc2c(C(C)C)c(=O)[nH]c(=S)n2COCCO)c1", "strain": "IIIB", "cell line": "CEM", "read by": "syncytia", "endpoint": "EC50", "value": "0.003 µM"}
{"structure": "NOCc1c(F)cccc1Cl", "strain": "IIIB", "cell line": "MOLT-4", "read by": "p24", "endpoint": "EC50", "value": ">43.5 µg/mL"}
{"structure": "C=C(CC[C@@H](C)[C@H]1CC=C2C3=C([C@@H](O)[C@H](OC(C)=O)[C@@]21C)[C@@]1(C)C[C@@H](O)[C@H](OS(=O)(=O)O)C(C)(C)[C@@H]1CC3)C(C)C", "endpoint": "EC50", "value": "<25 µM"}
{"structure": "O=c1[nH]cnc2c1ncn2[C@H]1CC[C@@H](CO)O1", "strain": "BCF03", "cell line": "PBMC", "changes": "RT-A98G Y181C", "endpoint": "EC50", "value": "1.2 µM"}
{"structure": "Cc1cn([C@H]2C[C@H](N=[N+]=[N-])[C@@H](COC(=O)CCC(=O)OC[C@H]3O[C@@H]4O[C@H]5[C@H](O)[C@@H](O)[C@@H](O[C@H]6[C@H](O)[C@@H](O)[C@@H](O[C@H]7[C@H](O)[C@@H](O)[C@@H](O[C@H]8[C@H](O)[C@@H](O)[C@@H](O[C@H]9[C@H](O)[C@@H](O)[C@@H](O[C@H]3[C@H](O)[C@H]4O)O[C@@H]9CO)O[C@@H]8CO)O[C@@H]7CO)O[C@@H]6CO)O[C@@H]5CO)O2)c(=O)[nH]c1=O", "strain": "IIIB", "cell line": "MT-4", "read by": "cytopathic effect / MTT", "endpoint": "EC50", "value": "0.008 µg/mL"}
{"structure": "Nc1ncnc2c1ncn2CCOCP(=O)(O)O", "strain": "IIIB", "cell line": "CEM", "read by": "syncytia", "endpoint": "EC50", "value": "8.5 µM"}
{"structure": "CCCCN1C(=O)[C@@H]([C@H](O)C2CCCCC2)NC(=O)C12CCN(Cc1ccc(Oc3ccc(C(=O)O)cc3)cc1)CC2", "strain": "NL4-3 X4", "cell line": "PBMC", "read by": "p24", "endpoint": "EC50", "value": ">1 µM"}
{"structure": "Cc1cn([C@@H]2O[C@H](CO[Si](C)(C)C(C)(C)C)[C@@]3(OS(=O)(=O)C=C3N)[C@H]2O[Si](C)(C)C(C)(C)C)c(=O)[nH]c1=O", "strain": "IIIB", "cell line": "CEM", "read by": "syncytia", "endpoint": "EC50", "value": "0.05 µM"}
{"structure": "O=C(Nc1nc2ccc([N+](=O)[O-])cc2s1)c1ccc([N+](=O)[O-])s1", "strain": "NL4-3", "cell line": "CEM-GXR", "read by": "flow cytometry", "endpoint": "EC50", "value": "2.4 µM"}
{"structure": "Cc1cn([C@H]2C[C@H](N=[N+]=[N-])[C@@H](CO)O2)c(=O)[nH]c1=O", "strain": "D34", "cell line": "PBL", "endpoint": "EC50", "value": "0.006 µM"}
{"structure": "Cc1cn([C@H]2C[C@H](N=[N+]=[N-])[C@@H](COC(=O)CCC(=O)OC[C@H]3O[C@@H]4O[C@H]5[C@H](O)[C@@H](O)[C@@H](O[C@H]6[C@H](O)[C@@H](O)[C@@H](O[C@H]7[C@H](O)[C@@H](O)[C@@H](O[C@H]8[C@H](O)[C@@H](O)[C@@H](O[C@H]9[C@H](O)[C@@H](O)[C@@H](O[C@H]%10[C@H](O)[C@@H](O)[C@@H](O[C@H]3[C@H](O)[C@H]4O)O[C@@H]%10CO)O[C@@H]9CO)O[C@@H]8CO)O[C@@H]7CO)O[C@@H]6CO)O[C@@H]5CO)O2)c(=O)[nH]c1=O", "strain": "IIIB", "cell line": "MT-4", "read by": "cytopathic effect / MTT", "endpoint": "EC50", "value": "0.014 µg/mL"}
{"structure": "CCOCn1c(Sc2cc(C)cc(C)c2)c(CC)c(=O)[nH]c1=O", "strain": "A012D", "cell line": "MT-4", "read by": "cytopathic effect / MTT / p24", "endpoint": "EC50", "value": "0.0027 µM"}
{"structure": "CCc1cc(NCc2nc3c(Cl)ccc(Cl)c3o2)c(=O)[nH]c1C", "strain": "NL4-3", "cell line": "MT-4", "changes": "RT-L100I", "read by": "p24", "endpoint": "EC50", "value": "0.2 µM"}
{"structure": "CCc1c(Cc2cc(C)cc(C)c2)n(COCCO)c(=O)[nH]c1=O", "strain": "IIIB", "cell line": "MT-4", "read by": "cytopathic effect / MTT", "endpoint": "EC50", "value": "0.015 µM"}
{"structure": "O=c1[nH]cnc2c1ncn2[C@H]1CC[C@@H](CO)O1", "strain": "IIIB", "cell line": "MT-4", "read by": "cytopathic effect / MTT", "endpoint": "EC50", "value": "2.17 µg/mL"}
{"structure": "CCOCn1c(Cc2cc(C)cc(C)c2)c(CC)c(=O)[nH]c1=O", "strain": "RF", "cell line": "MT-4", "read by": "cytopathic effect / MTT", "endpoint": "EC50", "value": "0.0013 µM"}
{"structure": "CC(C)(C)C(=O)SCCOP(=O)(OCCSC(=O)C(C)(C)C)OC[C@H]1CC[C@@H](n2cnc3c(N)ncnc32)O1", "cell line": "PBMC", "endpoint": "EC50", "value": "0.002 µM"}
{"structure": "Nc1nc2c(ncn2[C@H]2CC[C@@H](CO)O2)c(=O)[nH]1", "strain": "IIIB", "cell line": "CEM", "read by": "syncytia", "endpoint": "EC50", "value": "1.1 µM"}
{"structure": "CC(C)=CCN1c2cc(Cl)cc3[nH]c(=S)n(c23)C[C@@H]1C", "cell line": "MT-4", "changes": "RT-K70R L100I", "endpoint": "EC95", "value": "0.1 µM"}
{"structure": "COC(=O)[C@H](C)NP(=O)(OC[C@@H]1C=C[C@H](n2cc(C)c(=O)[nH]c2=O)O1)Oc1ccc(Br)cc1", "strain": "Y270-7 NRTI resistant", "cell line": "PBMC", "changes": "RT-M41W Y188L T215N", "read by": "p24", "endpoint": "EC50", "value": "0.009 µM"}

Again, the opening 2 rows:

structure,strain,cell line,changes,read by,endpoint,value
Cc1ccc(-c2ccc3c(c2)C=C(C(=O)Nc2ccc(C[N+](C)(C)C4CCOCC4)cc2)CCC3)cc1,BAL R5,PBMC,-,p24,EC90,0.256 µM
Nc1ccn([C@H]2CC[C@@H](CO)O2)c(=O)n1,BCF03,PBMC,RT-A98G Y181C,-,EC50,0.12 µM